Primary screen of a compound library

A: 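Whole-cell growth test on Mycobacterium tuberculosis, read after 3 days in glucose-containing 7H9 medium; the read-out is not stated. Concentration: 50 µM. The record gives no direction; compounds that gave an IC50 in retests scored well above the rest, so higher reads as more growth inhibition. Of about 69,000 compounds tested this way, about 760 (1.1%) reached 50% or more in at least one test.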
B: 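Phenotypic screen: M. tuberculosis growth, cholesterol and DPPC medium, 4 days; the read-out is not stated. Concentration: 50 µM. Higher reads as more growth inhibition (inferred: compounds with an IC50 in retests scored well above the rest). About 69,000 compounds were tested under these conditions; 0.54% (about 370) showed 50% or more at least once.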

The filed quantity is “Percent Effect” (%). The record does not define 0% and 100%; most values in the screen are far below 50% and negative numbers occur (in some assays of this library far below -100). This is part of a subset picked to be rich in strong results. Two or more numbers in one place are separate tests of the same structure; such repeats can differ widely. A dash means the value is not listed here; it may have been measured.

For COc1ccc(CNc2cccnc2-n2cccn2)cc1OC the result was A: -3.492% and 11.43%; B: 8.488%. COc1ccc(C(=O)NCc2ccc(C(=O)O)o2)cc1 read A: -20.82% and 0.4671%. CC(C)c1noc(C2CCCN2S(=O)(=O)N2CCCCCC2)n1 (centres undefined) gave A: -11.43%. Result for Cc1noc(C)c1NC(=O)Cn1cc(Br)ccc1=O was A: -15.87% and 2.299%. Result for O=C(Cn1nnn(-c2cccs2)c1=O)NCC1CCOC1 (centres undefined) was A: -14.81% and -8.528%; B: -14.94%. [H][C@]12CC[C@]([H])(CN(Cc3nnc(-c4ccccc4)o3)C1)N(CC1CCC1)C2 read A: -43.34%; B: 5.803%.

COCC1CN(Cc2ccsc2)Cc2cnn(C)c21 (centres undefined) gave A: 24.23%. CC(Cn1cccn1)NCc1nc(-c2ccccn2)no1 (centres undefined) gave A: -14.55%; B: -22.43%. Cc1ncccc1Oc1cncc(C2CCCN2Cc2cncn2C)n1 (centres undefined) read A: 3.589%. With Cc1nc(CN2CCCC(CCc3ccc(F)c(F)c3)C2)c[nH]1 (centres undefined) the screen gave A: 46.73%; B: 26.07%. For O=C(O)C(F)(F)F.[H][C@@]12CCN(Cc3ccc(F)cc3)C[C@]1([H])[C@@H](CNS(C)(=O)=O)OC2 the result was B: -15.04%. CCN1C(=O)C2(CCOCC2)c2cc(NC(=O)c3cnccn3)ccc21 gave A: -9.701% and -14.15%.

With O=C(CN1CCCC(c2ccn[nH]2)C1)Nc1nc2c(s1)CCC2 (centres undefined) the screen gave A: 37.19%; B: 17.91%. CN(Cc1cnn(C)c1)C(=O)c1cc2ccccc2c(=O)[nH]1 gave A: -8.918%; B: -24.12%. O=S(=O)(CCN1CCOC(Cn2cccn2)C1)c1ccccc1 (centres undefined) gave A: -20.6%. COc1ccc2cccc(CC(=O)NCc3nccc(N)n3)c2c1 read B: -5.319%. For Cc1oc(-c2cccs2)nc1C(=O)N(C)C1(C#N)CCC1 the result was A: 10.44%. Cc1noc(C)c1C(C)NC(=O)N1CCC(NC(=O)c2ccsc2)CC1 (centres undefined) read A: -10.57% and 1.819%.

For Cc1cccnc1CN(C)C(C(=O)O)c1ccc(-c2ccn[nH]2)cc1 (centres undefined) the result was A: 64.73%. Result for CS(=O)(=O)N1CCC(OCCCc2ccccc2)C1 (centres undefined) was A: 20.12% and 2.779%. O=C(NCCNc1ccc(C(F)(F)F)cn1)c1ccoc1 gave A: 31.87%. CN(C)c1cc(CNC(=O)Nc2nccs2)ccn1 read A: -16.03%. With COc1ccc(C)cc1CN1CCN(Cc2nccn2C)CC1 the screen gave A: 1.127% and 9.306%; B: 4.975%. Cc1cc(CNC(=O)COc2ccccc2F)c(C)o1 gave A: 11.35% and 18.32%; B: 4.199%.

COc1cc(NC(=O)NCCO)ccc1N1CCOC1=O gave A: 16.41%. COc1ccccc1C(N)CC(C)C (centres undefined) gave A: -10.92% and -0.11%; B: -6.457%. O=C(NCCC1Cc2ccccc2C1)N1CCCC(O)C1 (centres undefined) read A: -16.49% and -9.279%. For Cc1ccc(NC(=O)c2coc(C)n2)c(C)c1 the result was A: 6.62%. With [H][C@]12CC[C@]([H])(CN(Cc3[nH]cnc3C)C1)N(Cc1ccc(C)o1)C2 the screen gave A: 4.358% and -34.75%. For N#CCCN1CCC(=Cc2ccccc2)CC1 the result was A: 12.71%; B: 6.355%.

Result for Cn1ccnc1-c1ccc(NC[C@H]2CCc3ccccc3O2)nn1 was A: 47.52%. Result for CC(NC(=O)c1cccs1)C(=O)NCc1ccccn1 (centres undefined) was A: -0.587%; B: 4.279%. Result for O=C(Cn1c(=O)oc2ccccc21)NCC1(O)CCc2ccccc21 (centres undefined) was A: -1.272%; B: -0.3507%.

Some entries from above, unchanged:

| SMILES | A | B |
|---|---|---|
| `CC(Cn1cccn1)NCc1nc(-c2ccccn2)no1` (centres undefined) | -14.55 | -22.43 |
| `O=C(Cn1c(=O)oc2ccccc21)NCC1(O)CCc2ccccc21` (centres undefined) | -1.272 | -0.3507 |
| `[H][C@]12CC[C@]([H])(CN(Cc3[nH]cnc3C)C1)N(Cc1ccc(C)o1)C2` | 4.358 and -34.75 | - |

Source: ChEMBL document CHEMBL3988442, “University of Dundee, Small-Polar-MMV Screening Library” (2021).